Compound potency records, mixed from different reports. Data source: NIAID ChemDB in PubChem.

Shared fields: cytotoxicity tests; cell line: MT-4; measure: CC50

Lines come from different laboratories, so protocols vary. CCn is the concentration with n% toxicity to the cells.

{"structure": "Cc1nnc(CN2CCn3c(nc(C(=O)NCc4ccc(F)cc4)c(O)c3=O)C2(C)C)o1", "read by": "microscopy", "result": ">1 µM"}
{"structure": "C[C@H]1CC[C@]2(CC(=O)NO2)[C@H]2CN1C(=O)c1c(O)c(=O)c(C(=O)NCc3c(F)cc(F)cc3F)cn12", "read by": "luminescence", "result": "50 µM"}
{"structure": "O=C1CC(c2ccccc2)n2nc(-c3cccnc3)nc2N1", "read by": "visual reading", "result": ">100 µg/mL"}
{"structure": "CS(=O)(=O)c1ccc(NC(=O)COc2ccc(Cl)c(Oc3cc(Cl)cc(C#N)c3)c2)c(Cl)c1", "read by": "microscopy", "result": ">20 µM"}
{"structure": "Cn1ccc(CN2CCn3c(nc(C(=O)NCc4ccc(F)cc4)c(O)c3=O)C2(C)C)n1", "read by": "microscopy", "result": ">1 µM"}
{"structure": "N#Cc1cc(Cl)cc(Oc2cc(OCC(=O)Nc3ccncc3C(F)(F)F)ccc2Cl)c1", "read by": "microscopy", "result": ">20 µM"}
{"structure": "COc1ccc(C2CC(=O)Nc3nc(C4CCCCC4)nn32)cc1", "read by": "visual reading", "result": "≥100 µg/mL"}
{"structure": "CCN1O[C@@]2(CC[C@H](C)N3C[C@H]2n2cc(C(=O)NCc4c(F)cc(F)cc4F)c(=O)c(O)c2C3=O)CC1=O", "read by": "luminescence", "result": "50 µM"}
{"structure": "O=C1CC(c2ccc([N+](=O)[O-])cc2)n2nc(-c3cccnc3)nc2N1", "read by": "visual reading", "result": ">100 µg/mL"}
{"structure": "COC1CN(c2ccc3c(COc4ccc(Cl)c(Oc5cc(Cl)cc(C#N)c5)c4)[nH]nc3n2)C1", "read by": "microscopy", "result": ">20 µM"}
{"structure": "O=C(O)CN1CCn2c(nc(C(=O)NCc3ccc(F)cc3)c(O)c2=O)C1", "read by": "microscopy", "result": ">1 µM"}
{"structure": "CC1=NO[C@@]2(CC[C@H](C)N3C[C@H]2n2cc(C(=O)NCc4ccc(F)cc4F)c(=O)c(O)c2C3=O)C1=O", "read by": "luminescence", "result": "50 µM"}
{"structure": "N#Cc1cc(Cl)cc(Oc2cc(OCc3[nH]nc4ncccc34)cc(F)c2Cl)c1", "read by": "microscopy", "result": ">20 µM"}
{"structure": "O=C(NCc1ccc(F)cc1)c1nc2n(c(=O)c1O)CCN(Cc1cn[nH]n1)C2", "read by": "microscopy", "result": ">1 µM"}
{"structure": "C[C@H]1CC[C@]2(CC(=O)N(Cc3ccccn3)O2)[C@H]2CN1C(=O)c1c(O)c(=O)c(C(=O)NCc3c(F)cc(F)cc3F)cn12", "read by": "luminescence", "result": "50 µM"}
{"structure": "Cc1cc(CNC(=O)c2nc3n(c(=O)c2O)CCNCC3N(C)C(=O)C(=O)N(C)C)ccc1F", "read by": "microscopy", "result": ">1 µM"}
{"structure": "N#Cc1cccc(Oc2cc(Cl)cc(OCC(=O)Nc3ccc(S(N)(=O)=O)cc3Cl)c2)c1", "read by": "microscopy", "result": ">20 µM"}
{"structure": "Cc1coc(CN2CCn3c(nc(C(=O)NCc4ccc(F)cc4)c(O)c3=O)C2(C)C)n1", "read by": "microscopy", "result": ">1 µM"}
{"structure": "N#Cc1cc(Cl)cc(Oc2cc(OCc3nc4cccc(Cl)c4o3)ccc2Cl)c1", "read by": "microscopy", "result": ">20 µM"}
{"structure": "C[C@@H]1CO[C@@]2(CC[C@H](C)N3C[C@H]2n2cc(C(=O)NCc4c(F)cc(F)cc4F)c(=O)c(O)c2C3=O)O1", "read by": "luminescence", "result": "31.9 µM"}
{"structure": "N#Cc1cc(Cl)cc(Oc2cc(OCc3[nH]nc4nc(N5CCC(N)C5)ccc34)ccc2Cl)c1", "read by": "microscopy", "result": ">20 µM"}
{"structure": "CNC(=O)CN1CCn2c(nc(C(=O)NCc3ccc(F)cc3)c(O)c2=O)C1(C)C", "read by": "microscopy", "result": ">1 µM"}
{"structure": "CC1=NOC2(CC[C@H](C)N3C[C@H]2n2cc(C(=O)NCc4ccc(F)cc4F)c(=O)c(O)c2C3=O)N1N(C)C", "read by": "luminescence", "result": "23.1 µM"}
{"structure": "CCN(CC)CCN1CCn2c(nc(C(=O)NCc3ccc(F)cc3)c(O)c2=O)C1(C)C", "read by": "microscopy", "result": ">1 µM"}
{"structure": "C[C@H]1CC[C@]2(CC(=O)N(C)C2)[C@H]2CN1C(=O)c1c(O)c(=O)c(C(=O)NCc3c(F)cc(F)cc3F)cn12", "read by": "luminescence", "result": "50 µM"}
{"structure": "O=C1CC(c2ccc([N+](=O)[O-])cc2)n2nc(C3CCCCC3)nc2N1", "read by": "visual reading", "result": "≥100 µg/mL"}
{"structure": "CN(C)C(=O)C(=O)N1CCn2c(nc(C(=O)NCc3ccc(F)cc3)c(O)c2=O)C1(C)C", "read by": "microscopy", "result": ">1 µM"}
{"structure": "NS(=O)(=O)c1ccc(NC(=O)COc2cc(Cl)cc(Oc3cncc(Br)c3)c2)c(Cl)c1", "read by": "microscopy", "result": ">20 µM"}

Again, the opening 2 rows:

{"structure": "Cc1nnc(CN2CCn3c(nc(C(=O)NCc4ccc(F)cc4)c(O)c3=O)C2(C)C)o1", "read by": "microscopy", "result": ">1 µM"}
{"structure": "C[C@H]1CC[C@]2(CC(=O)NO2)[C@H]2CN1C(=O)c1c(O)c(=O)c(C(=O)NCc3c(F)cc(F)cc3F)cn12", "read by": "luminescence", "result": "50 µM"}